13 molecules from the supplement of paper PMC9931576 can be followed below.

Numbering of substitutions follows the chain as printed. Human monoclonal antibodies against the spike receptor-binding domain (heavy:light variable regions). IC50 against pseudoviruses bearing the spike of naturally observed variants; lower = stronger; >10 µg/ml means not reached at the top dose. No active / inactive call. The stated detection limit is 0.0005 µg/ml; values near or below 0.001 µg/ml lie at the floor of the assay. Bounds are passed on as bounds.

Common to all, as to assay: pseudovirus neutralization IC50; higher = weaker neutralization
Experiment [1] deals with SARS-CoV-2 Omicron BA.1 spike pseudovirus. As for the experimental part: (§1)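 Single-round VSV luciferase pseudovirus mixed with antibody dilutions for 1 h and put on Huh-7 cells for about a day; IC50 from the dose curve.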
Experiment [2] addresses SARS-CoV-2 Omicron BA.2 spike pseudovirus. As to the method:
as §1

Experiment [3] deals with SARS-CoV-2 Omicron BA.2.75 spike pseudovirus. As to the method:
as §1

For experiment [4], the target named is SARS-CoV-2 Omicron BA.5 spike pseudovirus. As for the experimental part:
as §1

Experiment [5] addresses SARS-CoV-2 Omicron BQ.1.1 spike pseudovirus. As for the experimental part: as §1
The target of experiment [6] is SARS-CoV-2 Omicron XBB spike pseudovirus. As for the experimental part:
as §1

In experiment [7] the target is SARS-CoV-2 early D614G spike pseudovirus. As to the method:
as §1

B1: BD56-1256 (protein)
chain 1: QAQLVESGGGVLQPGRSLRLSCVASRLTFSAYGMHWVRQAPGKGLEWVAVISSDGRNKYYADSVKGRFSISRDNSKNTLYLQMNSLRAEDAAVYYCARLLGYYDGSGYFGNEYWGQGTLVTVSS
chain 2: QSALTQPASVSGSPGQSITISCTGTSSDVGGYNFVSWYQQHPGKAPKLMIYDVSDRPSGVSNRFSGSKSGNTASLAISGLQAEDEADYYCSSYTISSTVVFGGGTKLTVL
Turning to B1, the “pseudovirus neutralization IC50” value in experiment [1], in experiment [2], in experiment [3], in experiment [4], in experiment [5] and in experiment [6] was above 10 µg/mL each time. The “pseudovirus neutralization IC50” value in experiment [7] came to 1.75 µg/mL.

B2: BD56-1274 (protein)
chain 1: EVQLVESGGGLVQPGRSLTLSCAASGFTFDDYAMHWVRQAPGKGLEWVSGISWNSGTIGYADSVQGRFIISRDNAKNSLFLHMRSLRAEDTALYYCAKDIRGIMIDDTIYGMDVWGQGTTVTVSS
chain 2: B1 chain 2 with G31N, F34Y, S54N, D55K, V60I, A76T, I95S, S96T, T98I, V100I
Consider B2, for which the “pseudovirus neutralization IC50” value is 0.255 µg/mL in experiment [1]; 0.0907 µg/mL in experiment [2]; 0.157 µg/mL in experiment [3]; above 10 µg/mL in experiment [4]; above 10 µg/mL in experiment [5]; 1.65 µg/mL in experiment [6]. Besides, the “pseudovirus neutralization IC50” value in experiment [7] turned out to be 0.0174 µg/mL.

B3: BD56-1248 (protein)
chain 1: QVQLVQSGAEVKKPGASVKVSCKASGYMFTTYGISWVRQAPGQGLEWIGWISAYNGDTNYSHKVQDRVTMTTDTSSSTAYMELRSLRSDDTAVYYCARDFGEISGSENHDYWGQGTLVTVSS
chain 2: EIVLTQSPATLSLSPGERATLSCRASQSVSIYLAWFQQKPGQAPRLLIYHASTRATGIPGRFSGSGSGTDFTLTISSLEPEDFAVYYCQHRSSWPFFGQGTRLEIK
For the molecule B3, the “pseudovirus neutralization IC50” value in experiment [1] was 0.258 µg/mL; in experiment [2], 0.0785 µg/mL; in experiment [3], 0.288 µg/mL; in experiment [4], above 10 µg/mL; in experiment [5], above 10 µg/mL; in experiment [6], above 10 µg/mL. Further, the “pseudovirus neutralization IC50” value in experiment [7] worked out at 0.201 µg/mL.

B4: BD56-1276 (protein)
chain 1: QVQLVESGGGVVQPGRSLRLSCAASGFTFKTYAMHWVRQGSGKGLEWVAVISDDGSNKYYADSVKGRFSISRDNSKNTLYLQMNSLRTEDTAVYFCARDRDDSSGWFLDYWGQGTLVTASS
chain 2: DIQMTQSPSALSASVGDRVSITCRASQGISNSLAWYQQKPGKAPKLLLYAAYRLESGVPSRFRGSGSGTDYTLTISSLQPEDFATYYCQQYYSMPPITFGQGTRLEIK
Consider B4, for which the “pseudovirus neutralization IC50” value in experiment [1], in experiment [2], in experiment [3], in experiment [4], in experiment [5] and in experiment [6] was above 10 µg/mL each time. For the same molecule, the “pseudovirus neutralization IC50” value in experiment [7] is above 10 µg/mL.

B5: BD56-1266 (protein)
chain 1: QVQLVQSGADVKKPGSSVKVSCKASGGTFSSYSIVWVRQAPGQGLEWMGRIIPILDVANYAQMFQGRVTITADRSTNTAYLEVSSLRSEDTAVYYCARETGTTGAPWFIPWGQGTLVIVSS
chain 2: QSVLTQPPSVSGAPGQRVTISCTGSDSNIGAGYDVHWYQKLPGTAPKLLIYGNNNRPSGVPDRFTGSKSDTSVSLAITGLQAEDEADYYCQSYDSGLIGVIFGGGTKLTVL
On to B5, for which the “pseudovirus neutralization IC50” value in experiment [1] is 0.0762 µg/mL; in experiment [2] it was 0.0534 µg/mL; in experiment [3], 0.0503 µg/mL; in experiment [4] it was above 10 µg/mL; in experiment [5], above 10 µg/mL; in experiment [6] it was 1.01 µg/mL. Besides, the “pseudovirus neutralization IC50” value in experiment [7] stood at 0.0574 µg/mL.

B6: BD56-1269 (protein)
chain 1: EVQLVESGGGLVKPGGSLRLSCAASGFPFSTYGMNWVRQAPGKGLEWVSSITGGSSYISYADSVKGRFTISRDNAKNSLYLHMKSLRGDDTAVYYCARDKRAHDEYSSGWYDYYYYNGMDVWGQGTTVTVSS
chain 2: QSVLTQPPSVSAAPGQKVTISCSGSSSNIGSNYVSWYQQLPGMAPKLLIYDDNKRPSVIPDRISGSKSGTSATLAITGLQTGDEADYYCGAWDSSLTAWVFGGGTKLTVL
As for B6, the “pseudovirus neutralization IC50” value in experiment [1] was 0.108 µg/mL; in experiment [2], 0.0887 µg/mL; in experiment [3], 0.114 µg/mL; in experiment [4], 0.091 µg/mL; in experiment [7] it was 0.0281 µg/mL.

B7: BD56-1253 (protein)
chain 1: EVQLVESGGGLIQPGGSLRLSCVASGFSVSNNYMTWVRQAPGKGLEWVSVIYSDGTTYYTDSVKGRYIISRDNSKNTLYLQMNRLRAEDTAVYYCVCSWYYDFLTGYYGFDYWGQGTLVTVSS
chain 2: QAVVTQEPSLTVSPGGTVTLTCGSSTGPVTSGHYPYWFQQKPGQAPRTLVYDTSNKQSWTPARFSGSLLGGKAALTLSGAQPEDEAEYYCLLSYSGARPGIFGGGTKLTVL
In the case of B7, the “pseudovirus neutralization IC50” value in experiment [1], in experiment [2], in experiment [3], in experiment [4], in experiment [5] and in experiment [6] was above 10 µg/mL throughout. In experiment [7], the “pseudovirus neutralization IC50” value was found to be 1.1 µg/mL.

B8: BD56-1281 (protein)
chain 1: EVQLVESGGGLVKPGGSLRLSCAASGFTFSSYDMYWVRQAPGKGLEWVSSITRSASYIYYADSLKGRFTISRDNAMNSLFLQMNSLKADDTAIYYCARGGSFLPYFDLWGRGSLVTVSS
chain 2: NFMLTQPHSVSESPGKTVTISCTGSSGSIANNYVQWYQQRPGSAPTNVIYEDNQRPSGVPERFSGSIDSSSNSASLTISGLKTEDEADYYCQSYDSKKSVIFGGGTKLTVL
For B8, the “pseudovirus neutralization IC50” value is 0.462 µg/mL in experiment [1]; 0.011 µg/mL in experiment [2]; 0.0273 µg/mL in experiment [3]; 2.13 µg/mL in experiment [4]; 2.75 µg/mL in experiment [5]; 2.05 µg/mL in experiment [6]. Besides, in experiment [7], the “pseudovirus neutralization IC50” value is 0.514 µg/mL.

B9: BD56-1249 (protein)
chain 1: QVQLVQSGAEVKKPGSSVRVSCKASGGNLINYAASWVRQAPGQGLEWMGGIVPILDITNYAQKFQGRVTITADKSTDTAYMELSSLRSEDTAVYFCATGVQYCSGSRCNSAYFDSWGQGTLVTVSS
chain 2: EIVLTQSPATLSLSPGERATLSCRASQSISSSHLAWYQQKPGQAPRLLIYGASSRATGIPDRFSGSGSGTDFTLTITRLAPEDFAVYYCQQYGSSPQRTFGQGTKVEIK
For B9, the “pseudovirus neutralization IC50” value in experiment [1] was 0.00444 µg/mL; in experiment [2] it was 0.00117 µg/mL; in experiment [3] it was 0.00129 µg/mL; in experiment [4], 0.422 µg/mL; in experiment [5], above 10 µg/mL; in experiment [6] it was above 10 µg/mL. For the same molecule, in experiment [7], the “pseudovirus neutralization IC50” value was 0.023 µg/mL.

B10: BD56-1250 (protein)
chain 1: B9 chain 1 with N28T, A34L, Q62L, D77S, V93L, Q101R, S104D, R107T
chain 2: B9 chain 2 with A9G, S28T, S32T, G58D, T77S, R78T
Regarding B10, the “pseudovirus neutralization IC50” value in experiment [1] was 0.0417 µg/mL; in experiment [2], 0.00158 µg/mL; in experiment [3] it was 0.00293 µg/mL; in experiment [4], 1.61 µg/mL; in experiment [5] it was 1.49 µg/mL; in experiment [6] it was above 10 µg/mL. The “pseudovirus neutralization IC50” value in experiment [7] stood at 0.00512 µg/mL.

B11: BD56-1259 (protein)
chain 1: QVQLQESGPGLVKPSQTLSLTCTVSGGSIRNEVYYWSWIRQPPGKGLEWIGYIHYSGNTYYNPSLKSRVAISVDTSKNQFSLKLNSVTAADTAVYYCARVDVGGRLVSTFDYWGQGTLVTVSS
chain 2: NFMLTQPHSVSESPGMTVTISCTGSSGSIADNYVQWYQQRPGSAPTTVIYENNQRPSGVPDRFSGSIDSSSNSASLTISGLKTEDEADYYCQSYDNSNIAVFGGGTQLTVL
B11: the “pseudovirus neutralization IC50” value is 0.106 µg/mL in experiment [1]; 0.0096 µg/mL in experiment [2]; 0.00512 µg/mL in experiment [3]; 0.00705 µg/mL in experiment [4]; 0.00507 µg/mL in experiment [5]; 0.00673 µg/mL in experiment [6]. For the same molecule, in experiment [7], the “pseudovirus neutralization IC50” value worked out at 0.0156 µg/mL.

B12: BD56-1273 (protein)
chain 1: QVQLVESGGGVVQPGRSLRLSCAASGFTFSDYAVHWVRQAPGKGLEWVAVISYDGISQYYADSVKGRFTISRDNSKNTLFLQMNSLSAEDTAVYYCARDPIITMVRGIIRTNWFDPWGQGTLVTVSS
chain 2: SYELTQPPSVSVSPGQTASITCSGDRLGNKYVSWYQQKAGQSPVLVIYQNYRRPSGIPERFSGSNSGNTATLTISGTQALDEADYYCQAWRSANHVVFGGGTKLTVL
As for B12, the “pseudovirus neutralization IC50” value in experiment [1] was above 10 µg/mL; in experiment [2], 1.66 µg/mL; in experiment [3], 0.286 µg/mL; in experiment [4], above 10 µg/mL; in experiment [5], above 10 µg/mL; in experiment [6] it was above 10 µg/mL. The “pseudovirus neutralization IC50” value in experiment [7] turned out to be 0.00224 µg/mL.

B13: COV2-2504 (protein)
chain 1: QVQLVQSGAEVKKPGASVKVSCKASGYTFTDYYMHWVRQAPGQGLEWMGWINPNSRGTNYAQKFQGRVTMTRDTSISTVYMELSRLTSDDTAVYYCARVVVLGYGRPNNYYDGRNVWDYWGQGTLVTVSS
chain 2: not shown
For the molecule B13, the “pseudovirus neutralization IC50” value in experiment [1], in experiment [2], in experiment [3], in experiment [4], in experiment [5] and in experiment [6] was above 10 µg/mL each time.
